A mixed list of measured activities; the numbers were collected in NIAID ChemDB.

All rows: toxicity to cultured cells; cell line: TZM-bl; endpoint: CC50

CCn: concentration that lowers growth or viability of the cells by n%.

COc1cccc2ccc(-c3nnc(-c4ccc5c(c4)OCO5)o3)nc12 ; read by: MTT ; result: 147 µM
Cc1cn(CC(=O)Nc2ccccn2)c(=O)[nH]c1=O ; read by: MTT ; result: 49 µM
Cc1cc(N2C(=O)CSC2c2c(Cl)cncc2Cl)nc(C)c1Br ; read by: MTT ; result: 15.6 µg/mL
Clc1ccc2nc(/C=C/c3cccc4ccccc34)cc(Cl)c2c1 ; read by: MTT ; result: 32.84 µM
NCCC(NC(=O)c1ccc(-c2ccc(C(F)F)cn2)[nH]1)c1nc(CO)cs1 ; read by: MTS / absorbance ; result: >102 µM
O=C1NC(=NCc2cccc(F)c2)S/C1=C\c1ccc(-c2ccc(C(=O)O)c(O)c2)o1 ; read by: XTT ; result: >50 µM
Cc1cc(/C=C/C#N)cc(C)c1Nc1nc(N)nc(Nc2ccc(C#N)cc2)n1 ; read by: WST ; result: 24.54 µM
Cc1ccc(-c2ccc(C(=O)NC(CN(C)C)c3nc(C)c(CO)s3)[nH]2)cc1F ; read by: XTT / absorbance ; result: >40 µM
N#C/C=C/c1cc(F)c(Nc2nc(N)nc(Nc3ccc(C#N)cc3)n2)c(F)c1 ; read by: WST ; result: 21.41 µM
COc1ccc(N(C)C(=O)C(Cc2cc(F)cc(F)c2)NC(=O)c2cn(C3CC(n4cc(C)c(=O)[nH]c4=O)OC3CO)nn2)cc1 ; read by: MTT ; result: >15.63 µM
O=[N+]([O-])c1ccccc1/C=C/c1cc(Cl)c2cc(Cl)ccc2n1 ; read by: MTT ; result: 47.03 µM
Oc1cccc2ccc(/C=N/Nc3ccc(C(F)(F)F)cc3)nc12 ; read by: MTT ; result: 50.29 µM
Cc1cc(/C=C/C#N)cc(C)c1Nc1nc(Nc2ccc(C#N)cc2)nc(N2CCOCC2)n1 ; read by: WST ; result: 11.4 µM
O=C(O[C@@H]1OC2COC(=O)c3cc(O)c(O)c(O)c3-c3c(cc(O)c(O)c3O)C(=O)O[C@@H](C1O)[C@@H]2O)c1cc(O)c(O)c(O)c1 ; read by: absorbance ; result: >100 µg/mL
Cc1nc(C(CN)NC(=O)c2cnc(-c3ccc(Cl)cc3)[nH]2)sc1CO ; read by: XTT / absorbance ; result: >51 µM
CCc1ccc(CCN=C2NC(=O)/C(=C/c3ccc(-c4ccc(C(=O)O)c(O)c4)o3)S2)cc1 ; read by: XTT ; result: >50 µM
COc1cc(Br)ccc1/C=C/c1cc(Cl)c2ccccc2n1 ; read by: MTT ; result: 40.57 µM
Oc1cccc2ccc(/C=N/Nc3cccc(C(F)(F)F)c3)nc12 ; read by: MTT ; result: 30.67 µM
Clc1ccc(N=Cc2cc3ccccc3nc2Nc2ccc(Cl)cc2)cc1 ; read by: MTT ; result: 79.15 µM
Oc1cccc2ccc(/C=N/Nc3ccc(Cl)cc3)nc12 ; read by: MTT ; result: 160 µM
Cc1cc(N2C(=O)CSC2c2c(F)cccc2F)no1 ; read by: MTT ; result: 62.7 µg/mL
O=C(CCC(=O)n1cnc2ccccc21)n1cnc2ccccc21 ; read by: MTT ; result: 202.8 µM
NCCC(NC(=O)c1ccc(-c2ccc(Cl)nc2)[nH]1)c1nc(CO)cs1 ; read by: MTS / absorbance ; result: >132 µM
COc1cccc2ccc(-c3nnc(-c4cccc(F)c4)o3)nc12 ; read by: MTT ; result: 63.71 µM
Cc1cc(/C=C/C#N)cc(C)c1Nc1nc(Nc2ccc(C#N)cc2)nc(N2CCN(C)CC2)n1 ; read by: WST ; result: 21.24 µM
CC(C)C[C@H](NC(=O)c1ccc(NC(=O)[C@H](Cc2c[nH]c3ccccc23)NC(=O)CCC(=O)NCCCCCCCCCCOCCNC(=O)CCC(=O)O)c(OCCc2c[nH]c3ccccc23)c1)C(=O)O ; read by: absorbance ; result: >50 µM
Clc1cc(/C=C/c2ccc(OCc3ccccc3)cc2)nc2ccccc12 ; read by: MTT ; result: 112 µM
Cc1nc(C(CN)NC(=O)C(=O)Nc2ccc3c(c2)OCO3)sc1CO ; read by: MTS ; result: ≥750 µM
Clc1ccc2nc(/C=C/c3ccc(-c4ccccc4)cc3)cc(Cl)c2c1 ; read by: MTT ; result: 17.54 µM
Cc1nc(C(CN)NC(=O)c2ccc(-c3ccc4c(c3)OCO4)[nH]2)sc1CO ; read by: MTS ; result: >100 µM
Oc1cccc2ccc(/C=N/Nc3ccc(Br)cc3)nc12 ; read by: MTT ; result: 108 µM
Cc1ccnc2c1NC(=O)c1cccnc1N2C1CC1 ; read by: XTT ; result: >1000 µM
Cc1cn([C@H]2C[C@H](N=[N+]=[N-])[C@@H](CO)O2)c(=O)[nH]c1=O ; read by: fluorescence ; result: >1 µM
Oc1cccc2ccc(/C=N/Nc3ccccc3F)nc12 ; read by: MTT ; result: 20.95 µM
Cc1cc(N2C(=O)CSC2c2c(Cl)cccc2Cl)nc(C)c1Br ; read by: MTT ; result: 2.5 µg/mL
Oc1cccc2ccc(/C=N/Nc3ccccc3)nc12 ; read by: MTT ; result: 41.82 µM
COc1cc(/C=C/c2cc(Cl)c3cc(Cl)ccc3n2)cc(OC)c1OC ; read by: MTT ; result: 36.64 µM
O=C(OC[C@H]1O[C@@H](OC(=O)c2cc(O)c(O)c(O)c2)[C@H](O)[C@@H](OC(=O)c2cc(O)c(O)c(O)c2)[C@@H]1O)c1cc(O)c(O)c(O)c1 ; read by: absorbance ; result: >100 µg/mL
O=C1NC(=NCc2ccc(Cl)cc2)S/C1=C\c1ccc(-c2ccc(C(=O)O)c(O)c2)o1 ; read by: XTT ; result: >50 µM
COc1cccc(N/N=C/c2ccc3cccc(O)c3n2)c1 ; read by: MTT ; result: 39.89 µM
O=C(Cn1ccc(=O)[nH]c1=O)Nc1ccccn1 ; read by: MTT ; result: 602 µM
COc1cccc2ccc(/C=C/C(=O)Nc3ccc(Cl)cc3)nc12 ; read by: MTT ; result: 128 µM
COc1ccc(N(C)C(=O)[C@H](Cc2ccccc2)NC(=O)c2cccc(-c3cn(-c4cnc5ccccc5c4)nn3)c2)cc1 ; read by: MTT ; result: >34.33 µM
COc1ccc(-c2ccc(C(=O)NC(CN)c3ncc(CO)s3)[nH]2)cc1OC ; read by: XTT / absorbance ; result: >50 µM
O=C1NC(=Nc2ccc(Cl)c(F)c2)S/C1=C\c1ccc(-c2ccc(C(=O)O)c(O)c2)o1 ; read by: XTT ; result: >50 µM
COc1ccc(C2CC(=O)c3c(O)cc(O[C@@H]4O[C@H](CO[C@@H]5O[C@@H](C)[C@H](O)[C@@H](O)[C@H]5O)[C@@H](O)[C@H](O)[C@H]4O)cc3O2)cc1O ; read by: absorbance ; result: >100 µg/mL
O=C(Cn1cnc2c([N+](=O)[O-])cccc21)Nc1ccccn1 ; read by: MTT ; result: 18.14 µM
Clc1cc(/C=C/c2ccc(-c3cncnc3)cc2)nc2ccccc12 ; read by: MTT ; result: 73.59 µM
CNc1nc(Nc2ccc(C#N)cc2)nc(Nc2c(C)cc(/C=C/C#N)cc2C)n1 ; read by: WST ; result: 5.91 µM
Oc1cccc2ccc(/C=N/Nc3ccc(F)cc3F)nc12 ; read by: MTT ; result: 53.68 µM
Clc1cc(/C=C/c2ccc(N3CCCC3)cc2)nc2ccccc12 ; read by: MTT ; result: 33.45 µM
O=C(Cn1cnc2ccccc21)Nc1ccccn1 ; read by: MTT ; result: 542 µM
NCC(NC(=O)c1ccc(-c2ccc(C(F)(F)F)cc2)[nH]1)c1ncc(CO)s1 ; read by: MTS / absorbance ; result: 34 µM
COc1cccc2ccc(-c3nnc(-c4cccnc4)o3)nc12 ; read by: MTT ; result: 50.93 µM
Cc1cc(/C=C/C#N)cc(C)c1Nc1nc(Nc2ccc(C#N)cc2)nc(N(C)C)n1 ; read by: WST ; result: 8.06 µM
COc1cc(-c2ccc(C(=O)NC(CCN)c3nc(CO)cs3)[nH]2)ccn1 ; read by: MTS / absorbance ; result: >133 µM
Cc1cn(CC(=O)Nc2ccc([N+](=O)[O-])cn2)c(=O)[nH]c1=O ; read by: MTT ; result: 78.75 µM
CSc1nc(Cl)cc(N2C(=O)CSC2c2c(F)cccc2Cl)n1 ; read by: MTT ; result: 27 µg/mL

For reference, 6 entries again:

O=C(Cn1cnc2c([N+](=O)[O-])cccc21)Nc1ccccn1 ; read by: MTT ; result: 18.14 µM
COc1cccc2ccc(-c3nnc(-c4cccc(F)c4)o3)nc12 ; read by: MTT ; result: 63.71 µM
COc1cc(Br)ccc1/C=C/c1cc(Cl)c2ccccc2n1 ; read by: MTT ; result: 40.57 µM
COc1ccc(N(C)C(=O)C(Cc2cc(F)cc(F)c2)NC(=O)c2cn(C3CC(n4cc(C)c(=O)[nH]c4=O)OC3CO)nn2)cc1 ; read by: MTT ; result: >15.63 µM
Cc1cc(N2C(=O)CSC2c2c(Cl)cccc2Cl)nc(C)c1Br ; read by: MTT ; result: 2.5 µg/mL
NCCC(NC(=O)c1ccc(-c2ccc(C(F)F)cn2)[nH]1)c1nc(CO)cs1 ; read by: MTS / absorbance ; result: >102 µM

Lines come from different laboratories, so protocols vary.